# B1: 13B Fab (Fab, V domains shown)
# VH: LEESGGGLVQPEGSLTLTCKASGFDFSDYHVQWVRQSPGKGLEFIGGIAYTGNIYYASWAKGRFTISKTSSTTVTLQMTTLTAADTATYFCARAYGYASAPYAQYFNLWGPGTLVTVSS
# VL: DIVMTQTPASVSEPVGGTVTINCQASQSRGNNYLSWYQQKPGQSPSLLIYRTSTLASGVPSRFKGSGSGTQFTLTISDLECADAATYYCLYGYYSSRNPDFAFGGGTEVVVK
# notes: also called nAb 13B; 13B antibody
# Target: T1, HIV-1 envelope glycoprotein (HIV-1 subtype B, B41, stabilised)
# T1 construct: source: HEK 293F, purified (2G12 IgG Sepharose column, Superdex 200); copies: 3 + 3
# Test: negative-stain EM
# Details: both partners purified
binder,measurement,value
B1,stoichiometry N,3 antibodies per trimer

# From PMC7081899, “Autologous Antibody Responses to an HIV Envelope Glycan Hole Are Not Easily Broadened in Rabbits” (Journal of Virology, 2020)
